Data from US20200109188A1, “Neutralizing anti-influenza A antibodies and uses thereof” (AstraZeneca / MedImmune, published 2020).

Experiments:
[1] = molecular target: HA of ca A/California/7/09 (H1N1) virus (influenza A virus); assay: cell-based or functional assay
[2] = molecular target: recombinant HA subtype H1 (A/California/7/09 (H1N1)) (influenza A virus)

B1: Antibody 5 (antibody, V domains shown)
VH: QVQLQQSGPGLVKPSQTLSLTCAISGDRVSSNSAVWNWIRQSPSRGLEWLGRTYYRSKWYYDYAESVKSRIVIDPDTSKNQVSLQLNSVTPEDSAIYYCARGGHITVFGLNIDAYDIWGQGAMVTVSS
VL: DIQMTQSPSSLSASVGDRVTISCRAQSLSSYLHWYQQKPGQPPKLLIYAATTLQSGVPSRFSGSGSGTDFTLTISTFQAEDVATYYCQQSRTFGQGTKVEIK
[1]
  Neutralization IC50, H1-CA09: 2.52 µg/mL

B2: Antibody 6 (antibody, V domains shown)
VH: QVQLQQSGPGLVKPSQTLSLTCAISGDRVSSNSAVWNWIRQSPSRGLEWLGRTYYRSKWYYDYAESVKSRIVIDPDTSKNQVSLQLNSVTPEDSAIYYCARGGHITEFGLNIDAYDIWGQGAMVTVSS
VL: DIQMTQSPSSLSASVGDRVTISCRAQSLSSYLHWYQQKPGQPPKLLIYAATTLQSGVPSRFSGSGSGTDFTLTISTFQAEDVATYYCQQSRTFGQGTKVEIK
[2]
  EC50: 0.311 µg/mL
[1]
  Neutralization IC50, H1-CA09: 5.56 µg/mL

B3: Antibody 8 (antibody, V domains shown)
VH: QVQLQQSGPGLVKPSQTLSLTCVISGDTVSSNRATWNWMRQSPLRGLEWLGRTYYRSKWYNDYAVSVKSRVVINPDTSKNQVSLQLNTVTPDDSGVYFCARGGHITVFGVNIDAFDIWGLGTKVTVSS
VL: DIQMTQSPSSLSASVGDRVTISCRASQRLNSYLHWYQQTPGQAPKLLIYATSTLQSGVSPRFSGSGSGTDFTLTISSLQPEDVATYYCQLSRTFGHGTKVEIK
[2]
  EC50: 0.069 µg/mL
[1]
  Neutralization IC50, H1-CA09: 4.5 µg/mL

B4: Antibody 10 (antibody, V domains shown)
VH: QVQLQQSGPGLVKPSQTLSLTCAISGDSVSSNSATWNWIRQSPSRGLEWLGRTYYRSKWYNDYADFLKRRITINPDTSNNEVSLRLTSVTPDDTALYYCARGGHITVFGVNIDAFDVWGQGTMVTVSS
VL: DIQMTQSPSSLSASVGDRITISCRTSQSLRSYLHWYQQKPGKAPKLLIYASSTLQSGVPSRFSGSGSGTDFTLTISNLQPEDFATYYCQLSRTFGQGTKVEIK
[2]
  EC50: 0.073 µg/mL
[1]
  Neutralization IC50, H1-CA09: 1.62 µg/mL
